In the assay the target is SARS-CoV-2 MPRO (Severe acute respiratory syndrome coronavirus 2 (2019-nCoV) (SARS-CoV-2), UniProt P0DTD1). Briefly: SARS-CoV-2 Mpro enzymatic assay (FRET substrate cleavage). Type of assay: biochemical. Conditions: read-out: M pro IC50; C-His6-tagged SARS-CoV-2 MPRO 25 nM, 30 min pre-incubation at RT, 60 min at 30° C., 10 doses from 25 μM.

On to `C[C@](C(=O)NC1CCC2(CCC2)CC1)(c1cncnc1)N(C(=O)[C@H](F)Cl)c1ccc(OC(F)(F)F)cc1` (single isomer, unassigned), for which the IC50 was less than 0.1 µM.

Consider `C[C@@](C(=O)NC1CCC2(CCC2)CC1)(c1cncnc1)N(C(=O)[C@H](F)Cl)c1ccc(OC(F)(F)F)cc1` (single isomer, unassigned), for which the IC50 is greater than 10 µM.

By IC50 is commonly meant the concentration that gives 50% inhibition.

Source of the values: patent publication US11731944B2, “SARS-CoV-2 inhibitors for treating coronavirus infections” (priority 2021, dated 2023).
